Results of unrelated studies side by side (data: NIAID ChemDB).

Common to all: tests in culture

Fold resistance: result on the changed form divided by that on wild type. ECn: concentration that inhibits the pathogen or its effect by n%. Lines come from different laboratories, so protocols vary. A number after MIC or MFC names an inhibition level or a share of isolates. Inhibition is in % at the dose shown (toxicity tests: loss of growth or viability). Blank or dashed fields: not listed here. a–b is a range or a potency band.

structure	cell line	read by	mutations	organism	strain	endpoint	tested at	value
Cc1c(N2C[C@@H](F)[C@@H](C3(N)CC3)C2)c(F)c(N)c2c(=O)c(C(=O)O)cn([C@@H]3C[C@@H]3F)c12	-	-	-	Staphylococcus aureus	25 strains (methicillin-susceptible)	MIC50	-	0.008 µg/mL
NC(=O)c1c[se]c([C@@H]2O[C@H](CO)[C@@H](O)[C@H]2O)n1	VERO	cytopathic effect / visual reading	-	West Nile virus	Uganda	EC50	-	14 µg/mL
N[C@@H]1[C@@H](O)[C@H](O)[C@@H](CO)O[C@H]1O	HeLa	cytopathic effect	-	Herpes simplex virus 1	KOS	EC50	-	>20000 µM
CCCCNC(=O)n1c(NC(=O)OC)nc2ccccc21	-	-	-	Cryptococcus neoformans	IU8698	EC50	-	2.8 µg/mL
COc1cc(C[C@H](C)[C@H](C)Cc2ccc(O)c(O)c2)ccc1O	-	broth dilution	-	Candida kefyr	CCC 123-2000	MIC100	-	31.25 µg/mL
O=C[C@@H](CO)O[C@H](C=O)n1ccc(=O)[nH]c1=O	VERO	cytopathic effect / visual reading	-	West Nile virus	NEW YORK	EC50	-	>250 µg/mL
CC[C@@]1(O)C(=O)OCc2c1cc1n(c2=O)Cc2cc3cc(O)ccc3nc2-1	-	-	-	Saccharomyces cerevisiae	Mutant ΔERG6	MIC	-	>100 µg/mL
CCCOc1ccc2nc(NC(=O)OC)[nH]c2c1	-	-	-	Cryptococcus neoformans	ATCC 14116	EC90	-	2.1 µg/mL
CC(N)C(=O)NC1C(C)OC(=O)C2=C(O)CC(O)C(O)C21	HeLa	cytopathic effect	-	Herpes simplex virus 1	KOS	EC50	-	67 µM
Cc1ccnc2c1NC(=O)c1cccnc1N2C1CC1	MT-4	-	-	HIV-1	-	EC95	-	0.4 µM
COc1c(C)c2c(c(O)c1C/C=C(\C)CCC(=O)O)C(=O)OC2	VERO	cytopathic effect / visual reading	-	West Nile virus	NEW YORK	EC50	-	2.7 µg/mL
C[C@@]1(O)[C@H](O)[C@@H](CO)O[C@H]1c1c[nH]c2c(N)ncnc12	Hep3B-T5B	MTT	-	Hepatitis C virus	-	inhibition	2 µg/mL	0.13%
Nc1ncnc2c1ncn2C[C@H](O)CO	P3HR-1	-	-	Epstein-Barr virus	-	inhibition	10 µM	6%
C#C[C@]1(CO)O[C@@H](n2cnc3c(N)nc(F)nc32)CC1O	MAGIC-5A	β-galactosidase / absorbance	K65R Y115F Q151M M184V	HIV-2	ROD9	fold resistance	-	13
Nc1nccc2c1ncn2[C@@H]1C[C@H](CO)[C@@H](O)[C@H]1O	BSC-1A	cytopathic effect	-	Vesicular stomatitis virus	-	EC50	-	>400 µg/mL
Nc1ncnc2c1ncn2[C@@H]1O[C@](F)(COS(N)(=O)=O)[C@@H](O)[C@H]1O	HeLa	cytopathic effect	-	Herpes simplex virus 1	KOS	EC50	-	>100 µg/mL
Cc1cn([C@H]2C[C@H](N=[N+]=[N-])[C@@H](CO)O2)c(=O)[nH]c1=O	MAGIC-5A	β-galactosidase / absorbance	-	HIV-2	ROD9	EC50	-	0.028 µM
NC(=O)c1ncn([C@@H]2O[C@H](CO)[C@@H](O)[C@H]2O)n1	HEP-2	plaque count	-	Respiratory syncytial virus	K686	EC50	-	6.77 µM
CO[C@H]1/C=C/O[C@@]2(C)Oc3c(C)c(O)c4c(=O)c(c5oc6cc(N7CCN(CC(C)C)CC7)cc(=O)c6nc5c4c3=C2O)NC(=O)/C(C)=C\C=C\[C@H](C)[C@H](O)[C@@H](C)[C@@H](O)[C@@H](C)[C@H](OC(C)=O)[C@@H]1C	-	-	-	Staphylococcus aureus	209P	MIC	-	0.0039 µg/mL
Nc1ccn(C[C@@H](CO)OCP(=O)(O)O)c(=O)n1	HEL	plaque count	-	Varicella zoster virus	OKA	EC50	-	0.067 µg/mL
CC(C)(CO)C(=O)SCCOP(=O)(NCc1ccccc1)OC[C@H]1O[C@@H](n2cnc3c(=O)[nH]c(N)nc32)[C@](C)(O)[C@@H]1O	Replicon cells	replicon	E15G	Hepatitis C virus	GT1a	fold resistance	-	1.6
COc1c(N2CCNC(C)C2)c(F)cc2c(=O)c(C(=O)O)cn(C3CC3)c12	-	-	-	Haemophilus influenzae	38 strains (ampicillin-susceptible)	MIC90	-	0.008 µg/mL
CC[C@@]1(O)C(=O)OCc2c1cc1n(c2=O)Cc2cc3c(N)cccc3nc2-1	-	-	-	Saccharomyces cerevisiae	JHY6-1C	MIC	-	>100 µg/mL
Nc1ncnc2c1ncn2CCOCP(=O)(O)O	HEL	cytopathic effect	-	Varicella zoster virus	Oka CF1368-resistant	EC50	-	14.3 µM
NC(=O)c1nc(F)c[nH]c1=O	MDCK	plaque count	-	Influenza C virus	Yamagata/3/96	EC50	-	0.057 µg/mL
NC1=NCN([C@@H]2O[C@H](CO)[C@@H](O)[C@H]2O)C(=O)N1	VERO	cytopathic effect / visual reading	-	West Nile virus	NEW YORK	EC50	-	>90 µg/mL
Nc1ncnc2c1ncn2[C@H]1CC[C@@H](CO)O1	CEM	virus yield	-	HIV-2	LAV-2	inhibition	1 µM	90%
CCCN(CCC)c1c([N+](=O)[O-])cc(C(F)(F)F)cc1[N+](=O)[O-]	-	-	-	Toxoplasma gondii	Oryzalin-resistant	EC50	-	>5 µM
C#CC[C@@H](C(=O)N[C@H](/C=C/C(=O)OCC)C[C@@H]1CCNC1=O)n1cccc(NC(=O)c2cc(C)on2)c1=O	H1-HELA	cytopathic effect / XTT	-	Rhinovirus	Serotype 13	EC50	-	0.055 µM
C[C@H]1NCc2cc(-c3ccc4c(=O)c(C(=O)O)cn(C5CC5)c4c3OC(F)F)ccc21	-	-	-	Haemophilus influenzae	38 strains (ampicillin-susceptible)	MIC90	-	0.008 µg/mL
CC[C@@]1(O)C(=O)OCc2c1cc1n(c2=O)Cc2cc3cc4c(cc3nc2-1)OCO4	-	-	-	Saccharomyces cerevisiae	Mutant ΔERG6 ΔTOP1	MIC	-	>100 µg/mL
C[C@@H]1C[C@@H]([C@H](O)CC2CC(=O)NC(=O)C2)C(=O)[C@@H](C)C1	HeLa	cytopathic effect	-	Herpes simplex virus 1	KOS	EC50	-	>200 µg/mL
C=CCc1ccc(O)c(-c2ccc(O)c(CC=C)c2)c1	-	broth dilution	-	Candida albicans	YL 317	MIC	-	64 µg/mL
O=c1cnn([C@@H]2O[C@H](CO)[C@@H](O)[C@H]2O)c(=O)[nH]1	VERO	cytopathic effect / visual reading	-	West Nile virus	Uganda	EC50	-	1.4 µg/mL
Nc1ncnc2c1ncn2C[C@H](CO)OCP(=O)(O)O	-	virus yield	-	Adenovirus	adenoid 75 (TYPE 5)	EC90	-	0.1 µg/mL
CO[C@H]1/C=C/O[C@@]2(C)Oc3c(C)c(O)c4c(O)c(c(/C=N/N5CCN(C)CC5)c(O)c4c3C2=O)NC(=O)/C(C)=C\C=C\[C@H](C)[C@H](O)[C@@H](C)[C@@H](O)[C@@H](C)[C@H](OC(C)=O)[C@@H]1C	-	-	-	Staphylococcus aureus	20 strains (methicillin-resistant)	MIC90	-	0.0078 µg/mL
CCc1c2c(nc3ccc(O)cc13)-c1cc3c(c(=O)n1C2)COC(=O)[C@]3(O)CC	-	-	-	Saccharomyces cerevisiae	JHY6-1C	MIC	-	>100 µg/mL
Nc1ncnc2c1ncn2C[C@@H](CO)OCP(=O)(O)O	HEL	plaque count	-	Varicella zoster virus	PCV-resistant/B	EC50	-	0.0054 µg/mL
CC(=O)N1CCN(c2ccc(OC[C@H]3CO[C@](Cn4ccnc4)(c4ccc(Cl)cc4Cl)O3)cc2)CC1	-	-	-	Candida albicans	Isogenic isolate 4 MDR1 (25X)	MIC	-	≤0.008 µg/mL
Nc1ncnc2c1ncn2C[C@@H](CO)OCP(=O)(O)O	-	virus yield	-	Adenovirus	Chicago (type 1)	EC90	-	1 µg/mL
O=c1ccc2cc(O[C@@H]3O[C@H](CO)[C@@H](O)[C@H](O)[C@H]3O)c(O)cc2o1	HeLa	cytopathic effect	-	Herpes simplex virus 1	KOS	EC50	-	>200 µg/mL
CC[C@@]1(OC(=O)CN)C(=O)OCc2c1cc1n(c2=O)Cc2cc3c(N)c4c(cc3nc2-1)OCO4	-	-	-	Saccharomyces cerevisiae	Mutant ΔERG6 ΔTOP1	MIC	-	>100 µg/mL
C/C=C/C=C/C1OC(O)(C(CC)C(=O)NC/C=C/C=C(\C)C(OC)C(C)C2OC(/C=C/C=C/C=C(\C)C(=O)c3c(O)ccn(C)c3=O)C(O)C2O)C(O)C(OC2OC(C)C(OC3OC(C)C(OC)C(O)C3OC)C(OC)C2O)C1(C)C	HeLa	cytopathic effect	-	Herpes simplex virus 1	KOS	EC50	-	>200 µg/mL
CC1(C)S[C@@H]2[C@H](NC(=O)[C@H](N)c3ccccc3)C(=O)N2[C@H]1C(=O)O	-	-	-	Haemophilus influenzae	38 strains (ampicillin-susceptible)	MIC50	-	0.25 µg/mL
C[C@@]1(O)[C@H](O)[C@@H](CO)O[C@H]1n1ccc2c(N)ncnc21	HepG2-5B	MTT	-	Hepatitis C virus	-	inhibition	2 µg/mL	0%
NC(=O)c1ncn([C@@H]2O[C@H](CO)[C@@H](O)[C@H]2O)n1	VERO	plaque count	-	Semliki Forest virus	-	EC50	-	>250 µM
Cc1ccc(C(=O)Nc2ccc(S(=O)(=O)O)c3cc(S(=O)(=O)O)cc(S(=O)(=O)O)c23)cc1NC(=O)c1cccc(NC(=O)Nc2cccc(C(=O)Nc3cc(C(=O)Nc4ccc(S(=O)(=O)O)c5cc(S(=O)(=O)O)cc(S(=O)(=O)O)c45)ccc3C)c2)c1	VERO	cytopathic effect	-	West Nile virus	Uganda	EC50	-	20 µg/mL
Nc1nc(N)c2ncn(CCOCP(=O)(O)O)c2n1	HEL	plaque count	-	Varicella zoster virus	PCV-resistant/A	EC50	-	6.8 µg/mL
COC(=O)Nc1nc2ccc(C(=O)c3cccs3)cc2[nH]1	-	-	-	Cryptococcus neoformans	ATCC 14116	EC50	-	<0.29 µg/mL
NC(=O)c1csc([C@@H]2O[C@H](COP(=O)(O)CP(=O)(O)OC[C@H]3O[C@@H](n4cnc5c(N)ncnc54)[C@H](O)[C@@H]3O)[C@@H](O)[C@H]2O)n1	VERO	cytopathic effect / visual reading	-	West Nile virus	Uganda	EC50	-	22 µg/mL
COc1c(N2C[C@@H]3CCCN[C@@H]3C2)c(F)cc2c(=O)c(C(=O)O)cn(C3CC3)c12	-	-	-	Staphylococcus aureus	25 strains (methicillin-susceptible)	MIC50	-	0.06 µg/mL
CCOC1c2cc(OC)c(OC)cc2-c2ccc3cc4c(cc3c2N1C)OCO4	-	-	-	Saccharomyces cerevisiae	Mutant ΔERG6	MIC	-	1.56 µg/mL
Nc1ncnc2c1ncn2C[C@@H](CO)OCP(=O)(O)O	P3HR-1	-	-	Epstein-Barr virus	-	inhibition	100 µM	11%
CC(=O)OC[C@H]1O[C@@H](n2ncc(=O)[nH]c2=O)[C@H](OC(C)=O)[C@@H]1OC(C)=O	VERO	cytopathic effect / visual reading	-	West Nile virus	NEW YORK	EC50	-	3 µg/mL
O=c1[nH]c(=O)n([C@@H]2O[C@H](CO)[C@@H](O)[C@@H]2O)cc1/C=C/Br	HEL	plaque count	-	Varicella zoster virus	PMEDAP-resistant	EC50	-	0.000066 µg/mL
CC(=O)NC[C@H]1CN(c2ccc(N3CCOCC3)c(F)c2)C(=O)O1	-	-	-	Staphylococcus aureus	Oxacillin-susceptible	MIC90	-	1–4 µg/mL
Nc1nc2c(ncn2CCOCP(=O)(O)O)c(=O)[nH]1	-	neutral red	-	Parainfluenza virus	C243 (TYPE 3)	EC50	-	5 µg/mL
CC1(C)[C@@H](O[C@H]2O[C@H](C(=O)O)[C@@H](O)[C@H](O)[C@H]2O[C@@H]2O[C@H](C(=O)O)[C@@H](O)[C@H](O)[C@H]2O)CC[C@]2(C)[C@H]3C(=O)C=C4[C@@H]5C[C@@](C)(C(=O)O)CC[C@]5(C)CC[C@@]4(C)[C@]3(C)CC[C@@H]12	VERO	virus yield	-	West Nile virus	E101	EC50	-	<625 µg/mL
NC(=O)c1[nH]nc([C@@H]2O[C@H](CO)[C@@H](O)[C@H]2O)c1O	VERO	cytopathic effect	-	West Nile virus	Uganda	EC50	-	0.5 µg/mL

Repeating the final 5 entries:

structure | cell line | read by | mutations | organism | strain | endpoint | tested at | value
O=c1[nH]c(=O)n([C@@H]2O[C@H](CO)[C@@H](O)[C@@H]2O)cc1/C=C/Br | HEL | plaque count | - | Varicella zoster virus | PMEDAP-resistant | EC50 | - | 0.000066 µg/mL
CC(=O)NC[C@H]1CN(c2ccc(N3CCOCC3)c(F)c2)C(=O)O1 | - | - | - | Staphylococcus aureus | Oxacillin-susceptible | MIC90 | - | 1–4 µg/mL
Nc1nc2c(ncn2CCOCP(=O)(O)O)c(=O)[nH]1 | - | neutral red | - | Parainfluenza virus | C243 (TYPE 3) | EC50 | - | 5 µg/mL
CC1(C)[C@@H](O[C@H]2O[C@H](C(=O)O)[C@@H](O)[C@H](O)[C@H]2O[C@@H]2O[C@H](C(=O)O)[C@@H](O)[C@H](O)[C@H]2O)CC[C@]2(C)[C@H]3C(=O)C=C4[C@@H]5C[C@@](C)(C(=O)O)CC[C@]5(C)CC[C@@]4(C)[C@]3(C)CC[C@@H]12 | VERO | virus yield | - | West Nile virus | E101 | EC50 | - | <625 µg/mL
NC(=O)c1[nH]nc([C@@H]2O[C@H](CO)[C@@H](O)[C@H]2O)c1O | VERO | cytopathic effect | - | West Nile virus | Uganda | EC50 | - | 0.5 µg/mL